Compound potency records, mixed from different reports. Data source: NIAID ChemDB in PubChem.

Shared fields: whole-cell or culture tests; species: HIV-1

Blank or dashed fields: not listed here. Percent inhibition refers to the dose given; in toxicity tests it is the harm to the cells. Fold resistance: result on the changed form divided by that on wild type. ECn is the concentration giving n% inhibition of infection, replication or growth. Two numbers with a dash give a range or band. Lines come from different laboratories, so protocols vary.

smiles,changes,cells,measure,strain,method,dose,setting,result
Nc1ncnc2c1ncn2CCOCP(=O)(O)O,,MM + M/M,EC99,,,,,0.5 µM
O=C1N(Cc2ccc(CO)cc2)[C@H](Cc2ccccc2)[C@H](O)[C@@H](O)[C@@H](Cc2ccccc2)N1Cc1ccc(CO)cc1,,PBMC,inhibition,B clinical isolate,p24,0.14 µM,,90%
CCNc1cccnc1N1CCN(C(=O)c2cc3cc(OC)ccc3[nH]2)CC1,,PBMC,inhibition,Seropositive clinical isolate B,MTT,1 µM,,47%
Cc1cn([C@H]2C[C@H](N=[N+]=[N-])[C@@H](CO)O2)c(=O)[nH]c1=O,RT-K103N,CEM + CEM-SS,fold resistance,NL4-3,XTT,,,4
O=c1[nH]cnc2c1ncn2[C@H]1CC[C@@H](CO)O1,RT-K65R L74V M184V Y115F,PBMC,EC90,XM-ABC-resistant,p24,,,38 µM
CC(C)=CCN1Cc2cc(Cl)cc3[nH]c(=S)n(c23)C[C@@H]1C,RT-D67N K70R T215Y K219Q,HT4 + HT4 LacZ-1,fold resistance,RTMC,plaque count,,,1.45
Cc1cn([C@H]2C[C@H](N=[N+]=[N-])[C@@H](CO)O2)c(=O)[nH]c1=O,,CEM,inhibition,LAV-Bru,RT activity,0.2 µM,26 d,0%
CC[C@@H](C)[C@H](C(=O)O)N1C[C@H](CN2CCC(c3cc(Cc4ccc(S(=O)(=O)c5ccccc5)cc4)nn3CC)CC2)[C@@H](c2cccc(F)c2)C1,,HeLa,EC90,BaL,β-galactosidase,,,0.0004 µM
Nc1ccn([C@@H]2CS[C@H](CO)O2)c(=O)n1,4xAZT,Primary T lymphocytes,EC90,,p24 / ELISA,,,3.4 µM
CCOc1ccc(Cc2cc(C3CCN(C[C@H]4CN([C@@H](C(=O)O)[C@H](C)CC)C[C@@H]4c4cccc(F)c4)CC3)n(CC)n2)cc1F,,HeLa,EC90,BaL,β-galactosidase,,,<0.00014 µM
O=C(Nc1cc(S(=O)(=O)O)cc2cc(S(=O)(=O)O)c(N=Nc3ccc(N=Nc4c(S(=O)(=O)O)cc5cc(S(=O)(=O)O)cc(NC(=O)c6cccc(Cl)c6Cl)c5c4O)cc3)c(O)c12)c1ccc(Cl)cc1Cl,,CEM,EC90,RF,,,,0.46–0.9 µg/mL
Cc1cn([C@H]2C[C@H](N=[N+]=[N-])[C@@H](CO)O2)c(=O)[nH]c1=O,,AA5,EC50,IIIB,cytopathic effect / XTT,,,0.01 µM
CC(C)[C@H](NC(=O)c1ccc2ccccc2n1)C(=O)N[C@@H](Cc1ccccc1)[C@H](O)CN1CC[C@@H](OCc2ccncc2)C[C@H]1C(=O)NC(C)(C)C,,PBMC,inhibition,VR949,p24,0.025 µM,,90%
O=C(CSc1nnnn1-c1ccc2c(c1)OCO2)Nc1ccccc1Cl,,MT-4,EC95,,p24,,,<10 µM
Cc1ccc(S(=O)(=O)N(CC(C)C)C[C@@H](O)[C@H](Cc2ccccc2)NC(=O)O[C@H]2CO[C@H]3OCC[C@H]32)cc1,LPV-P31 lopinavir-resistant mutant,MT-2,fold resistance,IIIB,ATP,,,0.8
CC(C)c1nc(CN(C)C(=O)N[C@H](C(=O)N[C@@H](Cc2ccccc2)C[C@H](O)[C@H](Cc2ccccc2)NC(=O)OCc2cncs2)C(C)C)cs1,,MT-4,EC90,NL4-3,p24,,,0.05 µM
Cc1ccnc2c1NC(=O)c1cccnc1N2C1CC1,RT-D67N K70R T215Y K219Q Y181C,MT-4,EC95,,,,,>3 µM
CCOP(=O)(COc1ccc(C[C@H](NC(=O)O[C@H]2CO[C@H]3OCC[C@H]32)[C@H](O)CN(CC(C)C)S(=O)(=O)c2ccc(OC)cc2)cc1)OCC,PLV-P31 LVP-resistant mutant,MT-2,fold resistance,IIIB,ATP,,,0.5
Cn1c2ccccc2c2c1cc(C#N)c(=O)n2-c1ccc([N+](=O)[O-])cc1,RT-K103N P225H,HeLa,fold resistance,NNRTI-resistant,luciferase,,,0.2
C#C[C@]1(CO)O[C@@H](n2cnc3c(N)nc(F)nc32)C[C@@H]1O,M41L/A114S/M184V/A400T,MT4-GFP,EC50,Clinical isolate,fluorescence,,,0.06234 µM
Cc1ccnc2c1NC(=O)c1cccnc1N2C1CC1,RT-Y181C,CEM + CEM-SS,EC50,Diphenyl sulfone-resistant (RT-Y181C),XTT,,,5.9 µM
N#CC[C@H](C1CCCC1)n1cc(-c2ncnc3[nH]ccc23)cn1,,PBMC,EC90,,p24 / ELISA,,,4.7 µM
CCCOc1ccc(Cc2cc(C3CCN(C[C@H]4CN([C@@H](C(=O)O)[C@@H](C)CC)C[C@@H]4c4cccc(F)c4)CC3)n(CC)n2)cc1,,HeLa,EC90,BaL,β-galactosidase,,,<0.00014 µM
Cc1cn([C@H]2C[C@H](N=[N+]=[N-])[C@@H](CO)O2)c(=O)[nH]c1=O,,U-937,inhibition,LAV-1,virus yield,1 µM,,0%
Cc1cc(C)c(-n2nnnc2S(=O)CC(=O)Nc2ccccc2[N+](=O)[O-])c(C)c1,,MT-4,EC95,,p24,,,<10 µM
Cc1cc(S(N)(=O)=O)ccc1NC(=O)COc1ccc(Cl)cc1C(=O)c1cc(Cl)cc(C#N)c1,RT-L100I,MAGI,EC50,NNRTI-resistant (RT L100I),β-galactosidase,,,0.0005 µM
Cc1cn([C@H]2C[C@H](N=[N+]=[N-])[C@@H](CO)O2)c(=O)[nH]c1=O,RT-M41L D67N K70R T215Y K219Q,MT-4,EC90,XM-AZT-resistant,p24,,,23 µM
Cc1cc(C)c(-n2nnnc2SCC(=O)Nc2ccc(S(N)(=O)=O)cc2Cl)c(C)c1,,MT-4,EC95,,p24,,,<10 µM
CCOc1ccc(Cc2cc(C3CCN(C[C@H]4CN([C@@H](C(=O)O)[C@@H](C)CC)C[C@@H]4c4cccc(F)c4)CC3)n(CC)n2)cc1F,,HeLa,EC90,BaL,β-galactosidase,,,<0.00014 µM
N#Cc1cc2[nH]c3ccccc3c2n(-c2ccc([N+](=O)[O-])cc2)c1=O,RT-K103N V108I,HeLa,fold resistance,NNRTI-resistant,luciferase,,,1.2
Cc1cc(C)c(-n2nnnc2SCC(=O)Nc2ccc(S(=O)(=O)Nc3nc(C)c(C)o3)cc2)c(C)c1,,MT-4,EC95,,p24,,,<10 µM
CC(C)CN(C[C@@H](O)[C@H](Cc1ccccc1)NC(=O)[C@H](CC(N)=O)NC(=O)c1ccc2ccccc2n1)C(=O)NC(C)(C)C,PR-L10R L63P,MT-4,EC95,NL4-3,p24,,,0.2 µM
Cc1cn([C@H]2C[C@H](N=[N+]=[N-])[C@@H](CO)O2)c(=O)[nH]c1=O,K112M K113E V128I M200I H219P I401T R409K D437N L441P R41K,MT-2,fold resistance,IIIB,p24 / ELISA,,,0.5
Cc1cc(C)c(-n2nnnc2SCC(=O)Nc2ccccc2Cl)c(C)c1,,MT-4,EC95,,p24,,,<10 µM
O=C(O)P(=O)(O)O,,PBL,inhibition,IIIB,RT activity,128 µM,28 d,83%
CCn1nc(Cc2cccc(F)c2)cc1C1CCN(C[C@H]2CN([C@@H](C(=O)O)C3CCCCC3)C[C@@H]2c2cccc(F)c2)CC1,,HeLa,EC90,BaL,β-galactosidase,,50% human serum,0.033 µM
CO[P@](=O)(c1cc(C)cc(/C=C/C#N)c1)c1c(C(N)=O)[nH]c2ccc(Cl)c(F)c12,,MT-4,EC50,BH10,,,,0.0003 µM
COCCNC(=O)[C@@H](NC(=O)[C@H](Cc1ccc(OC)c(OC)c1OC)C[C@H](O)[C@H](Cc1ccccc1)NC(=O)OC(C)(C)C)C(C)C,,PBL,EC99,,,,,0.06 µM
O=S(=O)(O)c1cc(N=C=S)ccc1/C=C/c1ccc(N=C=S)cc1S(=O)(=O)O,,JM,inhibition,GB8,syncytia,25 µg/mL,,100%
c1cc(CN2CCCNCCNCCCNCC2)ccc1CN1CCCNCCNCCCNCC1,,PBMC,inhibition,SW38 CLADE C R5,p24,0.1 µM,,0%
Cc1cc(C)c(-n2nnnc2SCC(=O)Nc2ccc([N+](=O)[O-])cc2Cl)c(C)c1,,MT-4,EC95,,p24,,,<10 µM
CC[C@@H](C)[C@H](C(=O)O)N1C[C@H](CN2CCC(c3cc(Cc4cccc(CN)c4)nn3CC)CC2)[C@@H](c2cccc(F)c2)C1,,HeLa,EC90,BaL,β-galactosidase,,50% human serum,0.033 µM
C[C@]12CCC(=O)C=C1CC[C@@H]1[C@@H]2[C@@H](O)C[C@@]2(C)[C@H]1CC[C@]2(O)C(=O)COP(=O)(O)O,,PBMC,EC30,BRU,RT activity,,,~5 µg/mL
Cc1cc(C)c(-n2nnnc2SCC(=O)Nc2ccc(C)cc2Cl)c(C)c1,,MT-4,EC95,,p24,,,<10 µM
Cc1cn([C@H]2C=C[C@@H](CO)O2)c(=O)[nH]c1=O,,ATH8,EC90,IIIB,cytopathic effect,,,<0.25 µg/mL
Cc1cn([C@H]2C[C@H](N=[N+]=[N-])[C@@H](COP(=O)(O)OC[C@H]3OC(O)[C@H](O)[C@@H](O)[C@@H]3O)O2)c(=O)[nH]c1=O,,CEM,inhibition,LAV-Bru,RT activity,25 µM,26 d,93%
Cc1cn([C@H]2C=C[C@@H](CO)O2)c(=O)[nH]c1=O,L74V,Primary T lymphocytes,EC90,,p24 / ELISA,,,9.8 µM
CN(Cc1ccccc1)C(=O)c1nc(C2COCCN2C)n(C)c(=O)c1O,,MT-4,EC95,IIIB,p24 / ELISA,,50% human serum,>8 µM

For reference, 7 entries again:

{"smiles": "Cc1ccc(S(=O)(=O)N(CC(C)C)C[C@@H](O)[C@H](Cc2ccccc2)NC(=O)O[C@H]2CO[C@H]3OCC[C@H]32)cc1", "changes": "LPV-P31 lopinavir-resistant mutant", "cells": "MT-2", "measure": "fold resistance", "strain": "IIIB", "method": "ATP", "result": "0.8"}
{"smiles": "O=C(O)P(=O)(O)O", "cells": "PBL", "measure": "inhibition", "strain": "IIIB", "method": "RT activity", "dose": "128 µM", "setting": "28 d", "result": "83%"}
{"smiles": "Cc1cc(S(N)(=O)=O)ccc1NC(=O)COc1ccc(Cl)cc1C(=O)c1cc(Cl)cc(C#N)c1", "changes": "RT-L100I", "cells": "MAGI", "measure": "EC50", "strain": "NNRTI-resistant (RT L100I)", "method": "β-galactosidase", "result": "0.0005 µM"}
{"smiles": "Cc1cn([C@H]2C[C@H](N=[N+]=[N-])[C@@H](CO)O2)c(=O)[nH]c1=O", "changes": "RT-M41L D67N K70R T215Y K219Q", "cells": "MT-4", "measure": "EC90", "strain": "XM-AZT-resistant", "method": "p24", "result": "23 µM"}
{"smiles": "CC(C)=CCN1Cc2cc(Cl)cc3[nH]c(=S)n(c23)C[C@@H]1C", "changes": "RT-D67N K70R T215Y K219Q", "cells": "HT4 + HT4 LacZ-1", "measure": "fold resistance", "strain": "RTMC", "method": "plaque count", "result": "1.45"}
{"smiles": "CCCOc1ccc(Cc2cc(C3CCN(C[C@H]4CN([C@@H](C(=O)O)[C@@H](C)CC)C[C@@H]4c4cccc(F)c4)CC3)n(CC)n2)cc1", "cells": "HeLa", "measure": "EC90", "strain": "BaL", "method": "β-galactosidase", "result": "<0.00014 µM"}
{"smiles": "N#CC[C@H](C1CCCC1)n1cc(-c2ncnc3[nH]ccc23)cn1", "cells": "PBMC", "measure": "EC90", "method": "p24 / ELISA", "result": "4.7 µM"}